Measurements reported in PubChem BioAssay AID624099 (ICCB-Longwood, 2012).
Assay: 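Human genes that papillomavirus E2 requires to repress the HPV18 LCR promoter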 (primary screen). System: human C33A cervical carcinoma cells (HPV-negative) stably expressing BPV1 E2 and an HPV18 LCR luciferase reporter. Reagents: siRNA pool against human genes, 40 nM. Duration: 72 h. Read-out: 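Per-well luciferase luminescence, z-scored on each plate against the plate mean and SD with control wells left out, then averaged across three replicate plates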. Scale: mean z-score and z-score: higher = stronger reporter signal, weaker E2 silencing. Active means: 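Hit if mean z-score reaches 2 and two or more of three replicate z-scores also reach 2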.
The deposit covers about 21,000 reagents; below is a part drawn at random. In the full data, 497 (2.4%) got an active call. 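Higher z means weaker E2 silencing; only reporter increases were scored, and knock-downs that hurt cell survival may mask genuine repressor factors.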 A number with no mark means an inactive call. No sequences are given here.

target gene | mean z-score | z-score, replicate A | z-score, replicate B | z-score, replicate C
MYCT1 (MYC target 1) | 2.26 (active) | 1.93 | 2.62 | 2.24
C1orf105 (chromosome 1 open reading frame 105) | -0.1 | 0.15 | -0.26 | -0.2
TSR3 (TSR3 ribosome maturation factor) | 0.08 | 0.28 | 0.05 | -0.08
UBL4B (ubiquitin like 4B) | -0.1 | -0.11 | 0.18 | -0.38
PXDC1 (PX domain containing 1) | -0.23 | 0.09 | -0.5 | -0.27
GAS2L1 (growth arrest specific 2 like 1) | -1.01 | -1.14 | -1.13 | -0.76
PCDHB12 (protocadherin beta 12) | 0.83 | 0.39 | 0.9 | 1.21
SNRNP35 (small nuclear ribonucleoprotein U11/U12 subunit 35) | 0.7 | 0.73 | 0.53 | 0.85
LINC00921 (long independently transcribed non-coding RNA 921) | -0.61 | -0.42 | -0.54 | -0.88
RAB21 (RAB21, member RAS oncogene family) | 0.3 | 0.45 | 0.06 | 0.38
SPRY4 (sprouty RTK signaling antagonist 4) | -0.25 | -0.33 | -0.43 | 0.02
GABRR3 (gamma-aminobutyric acid type A receptor subunit rho3) | -0.36 | -0.52 | -0.41 | -0.16
MT-ATP8 (mitochondrially encoded ATP synthase 8) | 0.11 | 0.01 | 0.14 | 0.18
PELI1 (pellino E3 ubiquitin protein ligase 1) | 0.55 | 0.39 | 0.66 | 0.61
SDAD1 (SDA1 domain containing 1) | -0.76 | -1.16 | -1.16 | 0.02
MYCBP (MYC binding protein) | 0.59 | 0.55 | 0.61 | 0.61
FAM169BP (family with sequence similarity 169 member B, pseudogene) | -1.15 | -0.86 | -1.34 | -1.24
LOC401255 (retired record) | -2.51 | -2.61 | -2.64 | -2.3
GABBR1 (gamma-aminobutyric acid type B receptor subunit 1) | -0.64 | -0.58 | -0.87 | -0.47
SAGE1 (sarcoma antigen 1) | -0.08 | -0.02 | -0.07 | -0.16
DHX58 (DExH-box helicase 58) | -0.34 | -0.42 | -0.09 | -0.51
ITPA (inosine triphosphatase) | 0.46 | 1.17 | 0.49 | -0.29
MAP3K2 (mitogen-activated protein kinase kinase kinase 2) | -0.5 | -0.52 | -0.16 | -0.82
